Pooled drug test results. Numbers come from NIAID ChemDB, via PubChem.

Common to all: growth or infection tests; agent: Herpes simplex virus 1; cell line: PRK; read by: cytopathic effect; measure: EC50

ECn is the concentration giving n% inhibition of infection, replication or growth. Neighbouring rows are from separate reports. An empty or dashed field is not shown.

| SMILES | strain | result |
|---|---|---|
| Nc1ncnc2c1c(Br)cn2[C@@H]1O[C@H](CO)[C@@H](O)[C@H]1O |  | 0.07 µg/mL |
| NC(=O)c1ncn([C@@H]2O[C@H](CO)[C@@H](O)[C@H]2O)c1C#CCO | KOS | >400 µg/mL |
| Nc1ncnc2c1c(Br)cn2[C@@H]1O[C@H](CO)[C@@H](O)[C@H]1O | KOS | ≥0.4 µg/mL |
| Nc1nccc2c1ncn2[C@@H]1C[C@H](CO)[C@@H](O)[C@H]1O | KOS F McIntyre | ≥200 µg/mL |
| Nc1ncnc2c1ncn2C[C@@H](O)[C@H](O)C(=O)O |  | >400 µg/mL |
| NC(=O)c1cn([C@H]2C[C@@H](O)[C@@H](CO)O2)c2ncnc(N)c12 | KOS | 70 µg/mL |
| Nc1nccc2c1ncn2[C@@H]1C=C(CO)[C@@H](O)[C@H]1O | KOS | >400 µg/mL |
| Nc1ncnc2c1ncn2C1CC(CO)[C@@H](O)[C@H]1O |  | 7 µg/mL |
| Nc1ncnc2c1ccn2[C@@H]1O[C@H](CO)[C@@H](O)[C@H]1O |  | >0.1 µg/mL |
| NC(=O)c1ncn([C@@H]2O[C@H](CO)[C@@H](O)[C@H]2O)n1 | KOS | >400 µg/mL |
| Nc1ncnc2c1ccn2[C@@H]1O[C@H](CO)[C@H](O)[C@H]1O | C1 (101) (TK-) | 0.4 µg/mL |
| Cn1cc(NC(=O)c2cc(NC(=O)CCCCCC(=O)Nc3cc(C(=O)Nc4cc(C(=O)NCCC(N)=[NH2+])n(C)c4)n(C)c3)cn2C)cc1C(=O)NCCC(N)=[NH2+] | KOS | >150 µg/mL |
| NC(=O)c1ncn([C@@H]2O[C@H](CO)[C@@H](O)[C@H]2O)c1C#CCCO | KOS | >400 µg/mL |
| Nc1ccn([C@@H]2C[C@H](CO)[C@@H](O)[C@H]2O)c(=O)n1 | B2006 (TK-) | 4 µg/mL |
| NC(=O)c1ncn([C@@H]2O[C@H](CO)[C@@H](O)[C@H]2O)c1C#Cc1ccccc1 | KOS | >400 µg/mL |
| NC(=O)c1ccnc([C@@H]2O[C@H](CO)[C@@H](O)[C@H]2O)c1 |  | >400 µg/mL |
| N#Cc1cn([C@@H]2O[C@H](CO)[C@@H](O)[C@@H]2O)c2ncnc(N)c12 | KOS | 7 µg/mL |
| Nc1ncnc2c1ncn2C[C@H](O)CO | McIntyre | >100 µg/mL |